Pooled drug test results. Numbers come from NIAID ChemDB, via PubChem.

Common to all: host cell toxicity; cell line: Huh7; endpoint: CC50

Rows are shuffled and stem from different studies. CCn is the concentration with n% toxicity to the cells. a–b is a range or a potency band.

smiles,value
COc1cc(Cc2cnc(/N=C3\C(=O)N(CN4CCC(C)CC4)c4ccc(F)cc43)nc2N)cc(OC)c1OC,<50 µg/mL
CCOc1nc(N)nc2ccc(-c3ccc(NC(=O)C4(N)CC4)cc3)nc12,>20 µM
CCC[C@H](NC(=O)[C@@H]1[C@H]2CCC[C@H]2CN1C(=O)[C@@H](NC(=O)[C@@H](NC(=O)c1cnccn1)C1CCCCC1)C(C)(C)C)C(=O)C(=O)N[C@@H](C)C1CCCCC1,>100 µM
CCOc1nc(N)nc2ccc(-c3ccc(C(=O)NC4CC4)c(Cl)c3)nc12,>20 µM
CCC[C@H](NC(=O)[C@@H]1[C@H]2CCC[C@H]2CN1C(=O)[C@@H](NC(=O)[C@@H](NC(=O)c1cnccn1)C1CCCCC1)C(C)(C)C)C(=O)C(=O)N[C@@H](C)Cc1ccccc1,34.4 µM
COc1ccccc1-c1cnc2nc(N)nc(N3CCOCC3)c2n1,>20 µM
Nc1ncnc2c1ncn2[C@@H]1C[C@H](CO)[C@@H](O)[C@]1(O)CO,24.7 µg/mL
COc1cc(Cc2cnc(/N=C3\C(=O)N(CN(C)C)c4ccc(F)cc43)nc2N)cc(OC)c1OC,<50 µg/mL
CCOc1nc(N)nc2ccc(-c3cccc(NS(=O)(=O)c4cn(C)cn4)c3)nc12,>20 µM
C=C1C(=O)O[C@@H]2[C@H]1CC[C@H](COC(=O)CC)[C@]1(O)CCC(=O)[C@@]21C,>2 µM
CCOc1cccc(-c2cnc3nc(N)nc(N4CCOCC4)c3n2)c1,10–20 µM
CC(Nc1s[nH]c(=O)c1C#N)c1ccccc1,>50 µM
CCCC(NC(=O)[C@@H]1[C@H]2CCC[C@H]2CN1C(=O)[C@@H](NC(=O)[C@@H](NC(=O)c1cnccn1)C(C)(C)C)C(C)(C)C)C(=O)C(=O)NC1CC1,>100 µM
Nc1nc(N2CCOCC2)c2cc(-c3ccc(Cl)cc3)ccc2n1,10–20 µM
COc1ccc(C)cc1Nc1s[nH]c(=O)c1C#N,>50 µM
CCOc1nc(N)nc2ccc(-c3cccc(NS(=O)(=O)c4c(C)noc4C)c3)nc12,>20 µM
COc1cccc(Nc2s[nH]c(=O)c2C#N)c1,>50 µM
COc1cc(Cc2cnc(/N=C3\C(=O)N(CN4CCN(c5cccc(Cl)c5)CC4)c4ccc(F)cc43)nc2N)cc(OC)c1OC,<50 µg/mL
Cc1ccc(S(=O)(=O)Nc2cc(-c3ccc(S(C)(=O)=O)cc3)sc2C(=O)O)c(C)c1,>200 µM
COc1ccc(-c2ccc3nc(N)nc(N4CCOCC4)c3c2)cc1OC,<10 µM
Nc1ncnc2c1c(C#Cc1cccc(-c3ccccn3)n1)cn2[C@H]1C[C@H](O)[C@@H](CO)O1,>100 µM
CCOc1nc(N)nc2ccc(-c3cccc(NS(=O)(=O)c4ccc(NC(C)=O)s4)c3)nc12,>20 µM
Nc1ncnc2c1ncn2[C@@H]1O[C@H](CO)[C@@H](F)[C@@H]1F,>10 µM
COCCOc1nc(N)nc2ccc(-c3ccc(C(=O)NC4CC4)cc3)nc12,>20 µM
N#Cc1c(Nc2cccc(Cl)c2Cl)s[nH]c1=O,>50 µM
COc1cc(Cc2cnc(/N=C3\C(=O)N(CN4CCN(C)CC4)c4ccc(F)cc43)nc2N)cc(OC)c1OC,<50 µg/mL
Nc1ncnc2c1ncn2[C@H]1O[C@H](CO)[C@@H](F)[C@@H]1F,>10 µM
Nc1nc(N2CCOCC2)c2nc(-c3ccoc3)cnc2n1,>20 µM
C=C1C(=O)O[C@@H]2[C@H]1CC[C@H](COC(=O)/C(C)=C\C)[C@]1(O)CCC(=O)[C@@]21C,>2 µM
CC(=O)Nc1ccc(-c2ccc3nc(N)nc(N4CCN(C(C)=O)CC4)c3c2)cc1,>20 µM
CC(C)Oc1nc(N)nc2ccc(-c3ccc(C(=O)NC4CCCCC4)cc3)nc12,>20 µM
CCC[C@H](NC(=O)[C@@H]1[C@H]2CCC[C@H]2CN1C(=O)[C@@H](NC(=O)[C@@H](NC(=O)c1cnccn1)C1CCCCC1)C(C)(C)C)C(=O)C(=O)NC1CC1,86.5 µM
C=C1C(=O)O[C@@H]2[C@H]1CC[C@H](COC(=O)/C(C)=C/C)[C@]1(O)CCC(=O)[C@@]21C,>2 µM
Nc1ncnc2c1c(C#Cc1ccc(-c3ccccn3)nc1)cn2[C@H]1C[C@H](O)[C@@H](CO)O1,2 µM
CN(C)c1ncnc2ccc(-c3ccc(F)cc3)cc12,>20 µM
COCCOc1nc(N)nc2ccc(-c3ccc(NC(=O)OC)cc3)nc12,>20 µM
Nc1ncnc2ccc(-c3ccc(F)cc3)cc12,>20 µM
CC(=O)c1cccc(Nc2s[nH]c(=O)c2C#N)c1,>50 µM
CCN(CC)CN1C(=O)/C(=N\c2ncc(Cc3cc(OC)c(OC)c(OC)c3)c(N)n2)c2cc(F)ccc21,<50 µg/mL

For reference, 3 entries again:

smiles | value
COc1ccccc1-c1cnc2nc(N)nc(N3CCOCC3)c2n1 | >20 µM
Nc1ncnc2ccc(-c3ccc(F)cc3)cc12 | >20 µM
C=C1C(=O)O[C@@H]2[C@H]1CC[C@H](COC(=O)CC)[C@]1(O)CCC(=O)[C@@]21C | >2 µM